Source: patent publication US12606546B2, “Small molecule inhibitors of calcium channel activity and uses thereof” (Arizona Board of Regents on Behalf of the University of …, priority 2020, dated 2026)

Tested on: gp120-injected rats
Assay: HIV gp120-induced sensory neuropathy, mechanical allodynia
Settings: 2 μg/5 μL intrathecal

## C[C@@H](c1ccccc1)n1nnnc1[C@@H](c1ccsc1)N1CCC(n2c(=O)[nH]c3ccccc32)CC1
  duration of reversal of mechanical allodynia, gp120: 4 h
  mechanical allodynia, gp120: reversal of mechanical allodynia
  time at which reversal of mechanical allodynia was seen, gp120: approximately 60 minutes
